{"source": "PubChem BioAssay AID624099 (ICCB-Longwood, 2012)", "purpose": "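Human genes that papillomavirus E2 requires to repress the HPV18 LCR promoter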 (primary screen)", "cell system": "human C33A cervical carcinoma cells (HPV-negative) stably expressing BPV1 E2 and an HPV18 LCR luciferase reporter", "knock-down reagent": "siRNA pool against human genes, 40 nM", "timing": "72 h", "detection": "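HPV18 LCR reporter light per well, converted to plate-wise z-scores that exclude control wells, and averaged over triplicate plates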", "direction": "mean z-score and z-score: higher = stronger reporter signal, weaker E2 silencing", "hit rule": "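Mean z ≥ 2 together with z ≥ 2 in two or more of the three replicates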", "note": "In all, the deposit lists about 21,000 reagents; shown is an unselected part. 497 of them (2.4%) count as active. 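Higher z means weaker E2 silencing; only reporter increases were scored, and knock-downs that hurt cell survival may mask genuine repressor factors.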"}
{"gene": "ZNF598 (zinc finger protein 598, E3 ubiquitin ligase)", "PubChem SID": "SID134312226", "mean z-score": -1.37, "z-score, replicate A": -1.53, "z-score, replicate B": -1.16, "z-score, replicate C": -1.42, "outcome": "inactive"}
{"gene": "STON2 (stonin 2)", "PubChem SID": "SID134320184", "mean z-score": -1.56, "z-score, replicate A": -1.87, "z-score, replicate B": -1.63, "z-score, replicate C": -1.19, "outcome": "inactive"}
{"gene": "MUCL1 (mucin like 1)", "PubChem SID": "SID134310021", "mean z-score": -0.47, "z-score, replicate A": -0.42, "z-score, replicate B": -0.66, "z-score, replicate C": -0.33, "outcome": "inactive"}
{"gene": "FOCAD (focadhesin)", "PubChem SID": "SID134319410", "mean z-score": -0.47, "z-score, replicate A": -0.63, "z-score, replicate B": -0.27, "z-score, replicate C": -0.5, "outcome": "inactive"}
{"gene": "TYW1 (tRNA-yW synthesizing protein 1 homolog)", "PubChem SID": "SID134324207", "mean z-score": -1.11, "z-score, replicate A": -1.41, "z-score, replicate B": -0.96, "z-score, replicate C": -0.97, "outcome": "inactive"}
{"gene": "LOC392702 (retired record)", "PubChem SID": "SID134327875", "mean z-score": -0.47, "z-score, replicate A": -0.28, "z-score, replicate B": -0.56, "z-score, replicate C": -0.56, "outcome": "inactive"}
{"gene": "NMD3 (NMD3 ribosome export adaptor)", "PubChem SID": "SID134321122", "mean z-score": 1.42, "z-score, replicate A": 1.68, "z-score, replicate B": 1.3, "z-score, replicate C": 1.28, "outcome": "inactive"}

2 entries already listed, arranged by “mean z-score”, high to low.
{"gene": "ZNF598 (zinc finger protein 598, E3 ubiquitin ligase)", "PubChem SID": "SID134312226", "mean z-score": -1.37, "z-score, replicate A": -1.53, "z-score, replicate B": -1.16, "z-score, replicate C": -1.42, "outcome": "inactive"}
{"gene": "STON2 (stonin 2)", "PubChem SID": "SID134320184", "mean z-score": -1.56, "z-score, replicate A": -1.87, "z-score, replicate B": -1.63, "z-score, replicate C": -1.19, "outcome": "inactive"}

Additional records follow:
{"gene": "OR1I1 (olfactory receptor family 1 subfamily I member 1)", "PubChem SID": "SID134325918", "mean z-score": 0.38, "z-score, replicate A": 0.18, "z-score, replicate B": 0.34, "z-score, replicate C": 0.6, "outcome": "inactive"}
{"gene": "GTF3C5 (general transcription factor IIIC subunit 5)", "PubChem SID": "SID134323778", "mean z-score": 0.3, "z-score, replicate A": 0.17, "z-score, replicate B": 0.28, "z-score, replicate C": 0.44, "outcome": "inactive"}
{"gene": "STK38 (serine/threonine kinase 38)", "PubChem SID": "SID56478844", "mean z-score": -0.83, "z-score, replicate A": -1.04, "z-score, replicate B": -0.45, "z-score, replicate C": -1.01, "outcome": "inactive"}
{"gene": "BTG3 (BTG anti-proliferation factor 3)", "PubChem SID": "SID134322944", "mean z-score": 0.2, "z-score, replicate A": 0.05, "z-score, replicate B": 0.41, "z-score, replicate C": 0.15, "outcome": "inactive"}
{"gene": "F2RL1 (F2R like trypsin receptor 1)", "PubChem SID": "SID134310740", "mean z-score": -1.03, "z-score, replicate A": -0.66, "z-score, replicate B": -0.97, "z-score, replicate C": -1.48, "outcome": "inactive"}
